Experimental data reported in patent publication US3945994A, “Novel acid compounds” (Gist-Brocades N.V., priority 1973, dated 1976).
In brackets after ≈: the same amount, converted by molar mass.

Assays:
Assay in all cases: agar serial dilution test, MIC
Conditions in all cases: 24 hours at 37°C
[1] = test system: Diplococcus pneumoniae L 54; assay type: cell-based
Escherichia coli U 20 = assay type: cell-based
[2] = test system: Haemophilus influenzae A 1030; assay type: cell-based
[3] = test system: Klebsiella pneumoniae A 809; assay type: cell-based
[4] = test system: Pasteurella multocida A 723; assay type: cell-based
Proteus mirabilis A 1200 = assay type: cell-based
Proteus mirabilis H 3 = assay type: cell-based
Proteus morganii 2241 = assay type: cell-based
Proteus rettgeri A 821 = assay type: cell-based
[5] = test system: Pseudomonas aeruginosa 2396; assay type: cell-based
[6] = test system: Pseudomonas aeruginosa H 10; assay type: cell-based
[7] = test system: Pseudomonas aeruginosa Wyeth A 1058; assay type: cell-based
[8] = test system: Staphylococcus aureus A 2001; assay type: cell-based
[9] = test system: Staphylococcus aureus A 321; assay type: cell-based
[10] = test system: Streptococcus haemolyticus A 266; assay type: cell-based
[11] = test system: Brucella melitensis A 488
Shigella equirulis T 3 = test system: Shigella equirulis T 3
Salmonella dublin P 43 = assay type: cell-based
[12] = test system: Salmonella typhimurium R172; assay type: cell-based
[13] = test system: Staphylococcus aureus A 2000; assay type: cell-based
[14] = test system: Staphylococcus aureus A 355'; assay type: cell-based
[15] = test system: Streptococcus faecalis L 80; assay type: cell-based
[16] = test system: Streptococcus haemolyticus A 1088; assay type: cell-based
Brucella suis A 1088 = test system: Brucella suis A 1088
Proteus mirabilis L 93 = test system: Proteus mirabilis L 93
[17] = test system: Salmonella typhimurium R 127; assay type: cell-based

**Q.** With `CCOP(=O)(NC(=O)N[C@@H](C(=O)N[C@@H]1C(=O)N2[C@@H]1SC(C)(C)[C@@H]2C(=O)O)c1ccccc1)OCC` as the compound, how does the MIC [1] read?
**A.** 0.5 µg/mL (≈ 0.946 µM)

**Q.** What about the MIC (Escherichia coli U 20) of the same compound?
**A.** 25 µg/mL (≈ 47.3 µM)

**Q.** What about the MIC [2] of the same compound?
**A.** 100 µg/mL (≈ 189 µM)

**Q.** And the MIC [3]?
**A.** 1.0 µg/mL (≈ 1.89 µM)

**Q.** What about the MIC [4] of the same compound?
**A.** 3 µg/mL (≈ 5.68 µM)

**Q.** What about the MIC (Proteus mirabilis A 1200) of the same compound?
**A.** 6 µg/mL (≈ 11.4 µM)

**Q.** What about the MIC (Proteus mirabilis H 3) of the same compound?
**A.** 25 µg/mL (≈ 47.3 µM)

**Q.** What about the MIC (Proteus morganii 2241) of the same compound?
**A.** 6 µg/mL (≈ 11.4 µM)

**Q.** And the MIC (Proteus rettgeri A 821)?
**A.** 3 µg/mL (≈ 5.68 µM)

**Q.** What about the MIC [5] of the same compound?
**A.** 50 µg/mL (≈ 94.6 µM)

**Q.** And the MIC [6]?
**A.** 3 µg/mL (≈ 5.68 µM)

**Q.** And the MIC [7]?
**A.** 50 µg/mL (≈ 94.6 µM)

**Q.** And the MIC [8]?
**A.** 6 µg/mL (≈ 11.4 µM)

**Q.** And the MIC [9]?
**A.** 1.5 µg/mL (≈ 2.84 µM)

**Q.** What about the MIC [10] of the same compound?
**A.** 6 µg/mL (≈ 11.4 µM)

**Q.** And the MIC [11]?
**A.** 90 µg/mL (≈ 170 µM)

**Q.** What about the MIC (Shigella equirulis T 3) of the same compound?
**A.** 50 µg/mL (≈ 94.6 µM)

**Q.** What does the source list for `CC1=C(C(=O)O)N2C(=O)[C@@H](NC(=O)[C@H](NC(=O)NP(=O)(O)OCC(C)C)c3ccccc3)[C@H]2SC1`?
**A.** MIC (Escherichia coli U 20): 100 µg/mL (≈ 190 µM); MIC [3]: 25 µg/mL (≈ 47.5 µM); MIC (Proteus mirabilis A 1200): > 100 µg/mL; MIC (Proteus mirabilis H 3): > 100 µg/mL; MIC (Proteus morganii 2241): > 100 µg/mL; MIC (Proteus rettgeri A 821): 3 µg/mL (≈ 5.7 µM); MIC [5]: > 100 µg/mL; MIC [6]: > 100 µg/mL; MIC [7]: > 100 µg/mL; MIC (Salmonella dublin P 43): 50 µg/mL (≈ 95 µM); MIC [12]: 100 µg/mL (≈ 190 µM); MIC [13]: 25 µg/mL (≈ 47.5 µM); MIC [14]: 50 µg/mL (≈ 95 µM); MIC [15]: > 100 µg/mL; MIC [16]: 3 µg/mL (≈ 5.7 µM); MIC (Brucella suis A 1088): 50 µg/mL (≈ 95 µM); MIC (Proteus mirabilis L 93): 25 µg/mL (≈ 47.5 µM); MIC (Shigella equirulis T 3): 6 µg/mL (≈ 11.4 µM)

**Q.** Which MIC [1] does the source give for `CC1(C)S[C@@H]2[C@H](NC(=O)[C@H](NC(=O)NP(C)(C)=O)c3ccccc3)C(=O)N2[C@H]1C(=O)O` here?
**A.** 0.25 µg/mL (≈ 0.534 µM)

**Q.** What about the MIC (Escherichia coli U 20) of the same compound?
**A.** 25 µg/mL (≈ 53.4 µM)

**Q.** And the MIC [2]?
**A.** > 100 µg/mL

**Q.** What about the MIC [3] of the same compound?
**A.** 50 µg/mL (≈ 107 µM)

**Q.** And the MIC [4]?
**A.** 0.12 µg/mL (≈ 0.256 µM)

**Q.** And the MIC (Proteus mirabilis H 3)?
**A.** 25 µg/mL (≈ 53.4 µM)

**Q.** What about the MIC (Proteus morganii 2241) of the same compound?
**A.** 100 µg/mL (≈ 213 µM)

**Q.** What about the MIC (Proteus rettgeri A 821) of the same compound?
**A.** 1.5 µg/mL (≈ 3.2 µM)

**Q.** And the MIC [5]?
**A.** 25 µg/mL (≈ 53.4 µM)

**Q.** And the MIC [6]?
**A.** > 50 µg/mL

**Q.** And the MIC [7]?
**A.** 50 µg/mL (≈ 107 µM)

**Q.** What about the MIC (Salmonella dublin P 43) of the same compound?
**A.** 25 µg/mL (≈ 53.4 µM)

**Q.** And the MIC [17]?
**A.** 25 µg/mL (≈ 53.4 µM)

**Q.** What about the MIC [13] of the same compound?
**A.** 3 µg/mL (≈ 6.4 µM)

**Q.** And the MIC [8]?
**A.** 1.5 µg/mL (≈ 3.2 µM)

**Q.** And the MIC [9]?
**A.** 0.5 µg/mL (≈ 1.07 µM)

**Q.** And the MIC [14]?
**A.** 3 µg/mL (≈ 6.4 µM)

**Q.** And the MIC [15]?
**A.** 1 µg/mL (≈ 2.13 µM)

**Q.** And the MIC [10]?
**A.** 0.03 µg/mL (≈ 0.064 µM)

**Q.** What about the MIC [11] of the same compound?
**A.** 1.5 µg/mL (≈ 3.2 µM)

**Q.** What about the MIC (Proteus mirabilis L 93) of the same compound?
**A.** 1.5 µg/mL (≈ 3.2 µM)

**Q.** And the MIC (Shigella equirulis T 3)?
**A.** 1.5 µg/mL (≈ 3.2 µM)

**Q.** Which results are given for `CC1(C)S[C@@H]2[C@H](NC(=O)[C@H](NC(=S)NP(=O)(c3ccccc3)c3ccccc3)c3ccccc3)C(=O)N2[C@H]1C(=O)O`?
**A.** MIC [1]: 0.5 µg/mL (≈ 0.821 µM); MIC (Escherichia coli U 20): 25 µg/mL (≈ 41.1 µM); MIC [2]: 2 µg/mL (≈ 3.29 µM); MIC [3]: > 100 µg/mL; MIC [4]: 3 µg/mL (≈ 4.93 µM); MIC (Proteus mirabilis A 1200): 50 µg/mL (≈ 82.1 µM); MIC (Proteus mirabilis H 3): 50 µg/mL (≈ 82.1 µM); MIC (Proteus morganii 2241): > 100 µg/mL; MIC (Proteus rettgeri A 821): 6 µg/mL (≈ 9.86 µM); MIC [5]: > 100 µg/mL; MIC [6]: > 100 µg/mL; MIC [7]: > 100 µg/mL; MIC (Salmonella dublin P 43): 50 µg/mL (≈ 82.1 µM); MIC [17]: 100 µg/mL (≈ 164 µM); MIC [9]: 3 µg/mL (≈ 4.93 µM); MIC [14]: 50 µg/mL (≈ 82.1 µM); MIC [10]: 0.1 µg/mL (≈ 0.164 µM); MIC [11]: 0.5 µg/mL (≈ 0.821 µM); MIC (Proteus mirabilis L 93): 6 µg/mL (≈ 9.86 µM)

**Q.** What does the source list for `CC1=C(C)CP(=O)(NC(=O)N[C@@H](C(=O)N[C@@H]2C(=O)N3[C@@H]2SC(C)(C)[C@@H]3C(=O)O)c2ccccc2)C1`?
**A.** MIC [1]: 0.25 µg/mL (≈ 0.48 µM); MIC [3]: 25 µg/mL (≈ 48 µM); MIC [4]: 0.75 µg/mL (≈ 1.44 µM); MIC (Proteus mirabilis A 1200): 6 µg/mL (≈ 11.5 µM); MIC [5]: 50 µg/mL (≈ 96.1 µM); MIC [6]: 100 µg/mL (≈ 192 µM); MIC [7]: 50 µg/mL (≈ 96.1 µM); MIC (Salmonella dublin P 43): 6 µg/mL (≈ 11.5 µM); MIC [12]: 25 µg/mL (≈ 48 µM); MIC [13]: 6 µg/mL (≈ 11.5 µM); MIC [8]: 6 µg/mL (≈ 11.5 µM); MIC [9]: 0.75 µg/mL (≈ 1.44 µM); MIC [14]: 6 µg/mL (≈ 11.5 µM); MIC [15]: 6 µg/mL (≈ 11.5 µM); MIC [16]: 0.12 µg/mL (≈ 0.231 µM); MIC (Brucella suis A 1088): 1.5 µg/mL (≈ 2.88 µM); MIC (Proteus mirabilis L 93): 1.5 µg/mL (≈ 2.88 µM); MIC (Shigella equirulis T 3): 1.5 µg/mL (≈ 2.88 µM)

**Q.** How did the MIC [1] turn out when `CCOP(=O)(NC(=S)N[C@@H](C(=O)N[C@@H]1C(=O)N2[C@@H]1SC(C)(C)[C@@H]2C(=O)O)c1ccccc1)OCC` was run?
**A.** 0.5 µg/mL (≈ 0.918 µM)

**Q.** And the MIC (Escherichia coli U 20)?
**A.** 6 µg/mL (≈ 11 µM)

**Q.** What about the MIC [2] of the same compound?
**A.** > 100 µg/mL

**Q.** And the MIC [3]?
**A.** 0.5 µg/mL (≈ 0.918 µM)

**Q.** And the MIC [4]?
**A.** 1 µg/mL (≈ 1.84 µM)

**Q.** What about the MIC (Proteus mirabilis H 3) of the same compound?
**A.** 50 µg/mL (≈ 91.8 µM)

**Q.** What about the MIC (Proteus morganii 2241) of the same compound?
**A.** 25 µg/mL (≈ 45.9 µM)

**Q.** And the MIC (Proteus rettgeri A 821)?
**A.** > 100 µg/mL

**Q.** What about the MIC [5] of the same compound?
**A.** > 100 µg/mL

**Q.** What about the MIC [6] of the same compound?
**A.** 0.5 µg/mL (≈ 0.918 µM)

**Q.** And the MIC [7]?
**A.** > 100 µg/mL

**Q.** What about the MIC (Salmonella dublin P 43) of the same compound?
**A.** > 100 µg/mL

**Q.** What about the MIC [13] of the same compound?
**A.** 50 µg/mL (≈ 91.8 µM)

**Q.** What about the MIC [8] of the same compound?
**A.** 1.0 µg/mL (≈ 1.84 µM)

**Q.** What about the MIC [9] of the same compound?
**A.** 3 µg/mL (≈ 5.51 µM)

**Q.** And the MIC [14]?
**A.** 100 µg/mL (≈ 184 µM)

**Q.** What about the MIC [15] of the same compound?
**A.** 100 µg/mL (≈ 184 µM)

**Q.** And the MIC [10]?
**A.** 0.25 µg/mL (≈ 0.459 µM)

**Q.** What about the MIC (Proteus mirabilis L 93) of the same compound?
**A.** 3 µg/mL (≈ 5.51 µM)

**Q.** What about the MIC (Shigella equirulis T 3) of the same compound?
**A.** 100 µg/mL (≈ 184 µM)
